# Measurements as given in patent US20040121316A1 (priority 2002, published 2004).
# How the values were obtained:
# [1] = system: mutant HIV-1 I50V #1 (M46I/I47V/I50V); format: cell-based
# [2] = system: mutant HIV-1 I50V #2 (L10I/M46I/I50V); format: cell-based; conditions: EC50 of mutant L10I/M46I/I50V relative to wild type; class symbols
# [3] = EC50 of mutant M46I/I47V/I50V relative to wild type, class symbols
SMILES,"I50V (#1) fold change [1, 3]",I50V (#1) fold change ([1]; mutant I50V (#1) vs wild type),further results
CCOP(=O)(Cc1ccc2c(c1)CCN(CC(NC(=O)OC1COC3OCCC13)C(O)CN(CC(C)C)S(=O)(=O)c1ccc(OC)cc1)C2)OCC (stereo not drawn),+ (>3 to ≦10),–,–
CCOC(=O)C(C)OP(=O)(Cc1ccc2c(c1)CCN(CC(NC(=O)OC1COC3OCCC13)C(O)CN(CC(C)C)S(=O)(=O)c1ccc(OC)cc1)C2)Oc1ccccc1 (stereo not drawn),+ (>3 to ≦10),–,–
CCOC(=O)C(C)OP(=O)(COc1ccc2c(c1)CCN(CC(NC(=O)OC1COC3OCCC13)C(O)CN(CC(C)C)S(=O)(=O)c1ccc(OC)cc1)C2)Oc1ccccc1 (stereo not drawn),+ (>3 to ≦10),–,–
CCOP(=O)(CNc1ccc(CC(NC(=O)OC2COC3OCCC23)C(O)CN(CC(C)C)S(=O)(=O)c2ccc(OC)cc2)cc1)OCC (stereo not drawn),− (≦3),–,–
COc1ccc(S(=O)(=O)N(CC(C)C)CC(O)C(Cc2ccc(NCP(=O)(OCc3ccccc3)OCc3ccccc3)cc2)NC(=O)OC2COC3OCCC23)cc1 (stereo not drawn),+ (>3 to ≦10),–,–
CCOC(=O)C(C)OP(=O)(CN1CC=C(CC(NC(=O)OC2COC3OCCC23)C(O)CN(CC(C)C)S(=O)(=O)c2ccc(OC)cc2)CC1)Oc1ccccc1 (stereo not drawn),–,− (≦3),–
COc1ccc(S(=O)(=O)N(CC(C)C)CC(O)C(CC2=CCN(CP(=O)(O)OC(C)C(=O)O)CC2)NC(=O)OC2COC3OCCC23)cc1 (stereo not drawn),–,− (≦3),–
COc1ccc(S(=O)(=O)N(CC(C)C)CC(O)C(Cc2ccc(OCc3ccccc3)cc2)NC(=O)OC2COC3OCCC23)cc1 (stereo not drawn),–,− (≦3),–
COc1ccc(S(=O)(=O)N(CCN2CCOCC2)CC(O)C(Cc2ccc(OCP(=O)(O)O)cc2)NC(=O)OC2COC3OCCC23)cc1 (stereo not drawn),–,+ (>3 to ≦10),–
COc1ccc(S(=O)(=O)N(CCN2CCOCC2)CC(O)C(Cc2ccc(OCP(=O)(OCc3ccccc3)OCc3ccccc3)cc2)NC(=O)OC2COC3OCCC23)cc1 (stereo not drawn),–,+ (>3 to ≦10),–
CCOC(=O)C(C)OP(=O)(Cc1ccc2c(c1)CCN(C[C@H](NC(=O)O[C@H]1CO[C@H]3OCC[C@H]31)[C@H](O)CN(CC(C)C)S(=O)(=O)c1ccc(OC)cc1)C2)Oc1ccccc1 (stereo partly drawn),–,+ +,–
COc1ccc(S(=O)(=O)N(CC(C)C)CC(O)C(Cc2ccc(NCP(=O)(O)O)cc2)NC(=O)OC2COC3OCCC23)cc1 (stereo not drawn),–,+ +,–
CC(C)CN(CC(O)C(Cc1ccc(OCP(=O)(O)O)cc1)NC(=O)OC1COC2OCCC12)S(=O)(=O)c1ccc(N)cc1 (stereo not drawn),–,+ (>3 to ≦10),–
CC(C)CN(CC(O)C(Cc1ccc(OCP(=O)(OCc2ccccc2)OCc2ccccc2)cc1)NC(=O)OC1COC2OCCC12)S(=O)(=O)c1ccc(N)cc1 (stereo not drawn),–,− (≦3),–
CC(C)CN(CC(O)C(Cc1ccc(OCP(=O)(OCc2ccccc2)OCc2ccccc2)cc1)NC(=O)OC1COC2OCCC12)S(=O)(=O)c1cccc(N)c1 (stereo not drawn),–,− (≦3),–
CCCCOC(=O)C(C)OP(=O)(COc1ccc(C[C@H](NC(=O)O[C@H]2CO[C@H]3OCC[C@H]32)[C@H](O)CN(CC(C)C)S(=O)(=O)c2cccc(N)c2)cc1)Oc1ccccc1 (stereo partly drawn),–,− (≦3),–
CC(C)CN(CC(O)C(Cc1ccccc1)NC(=O)OC1COC2OCCC12)S(=O)(=O)c1ccc(O)cc1 (stereo not drawn),–,− (≦3),–
CC(C)CN(CC(O)C(Cc1ccccc1)NC(=O)OC1COC2OCCC12)S(=O)(=O)c1ccc(OCP(=O)(O)O)cc1 (stereo not drawn),–,− (≦3),–
CC(C)CN(CC(O)C(Cc1ccccc1)NC(=O)OC1COC2OCCC12)S(=O)(=O)c1cccc(O)c1 (stereo not drawn),–,+ (>3 to ≦10),–
COc1ccc(S(=O)(=O)N(CC(C)C)CC(O)C(Cc2ccccc2)NC(=O)OC2COC3OCCC23)cc1O (stereo not drawn),–,− (≦3),–
COc1ccc(S(=O)(=O)N(CC(C)C)CC(O)C(Cc2ccccc2)NC(=O)OC2COC3OCCC23)cc1OCP(=O)(O)O (stereo not drawn),–,+ (>3 to ≦10),–
CCOP(=O)(COc1cc(S(=O)(=O)N(CC(C)C)CC(O)C(Cc2ccccc2)NC(=O)OC2COC3OCCC23)ccc1OC)OCC (stereo not drawn),–,+ (>3 to ≦10),–
CCOP(=O)(COc1cc(S(=O)(=O)N(CC(C)C)CC(O)C(Cc2ccccc2)NC(=O)OC2COC3OCCC23)ccc1O)OCC (stereo not drawn),–,+ (>3 to ≦10),–
"COC(=O)N[C@H](C(=O)N[C@@H](Cc1ccccc1)[C@@H](O)CN(Cc1ccc(-c2ccccn2)cc1)NC(=O)[C@@H](NC(=O)OC)C(C)(C)C)C(C)(C)C [Atazanavir, reference compound]",− (≦3),–,I50V (#2) fold change [2]: − (≦3)

SMILES,"I50V (#1) fold change [1, 3]",I50V (#1) fold change ([1]; mutant I50V (#1) vs wild type),further results
CCCCOC(=O)C(C)NP(=O)(COc1ccc(CC(NC(=O)OC2COC3OCCC23)C(O)CN(CC(C)C)S(=O)(=O)c2ccc(OC)cc2)cc1)Oc1ccccc1 (stereo not drawn) [Example 30d],− (≦3),–,–
CCOC(=O)C(C)NP(=O)(COc1ccc(CC(NC(=O)OC2COC3OCCC23)C(O)CN(CC(C)C)S(=O)(=O)c2ccc(OC)cc2)cc1)OCc1ccccc1 (stereo not drawn) [Example 30e],− (≦3),–,–
COc1ccc(S(=O)(=O)N(CC(C)C)CC(O)C(Cc2ccc(OCP(=O)(Oc3ccccc3)OC(C)C(=O)OC(C)C)cc2)NC(=O)OC2COC3OCCC23)cc1 (stereo not drawn) [Example 31a],− (≦3),–,–
"CC(C)CN(C[C@@H](O)[C@H](Cc1ccc(OCP(=O)(Oc2ccccc2)Oc2ccccc2)cc1)NC(=O)OC1CCOC1)S(=O)(=O)c1ccc(N)cc1 (stereo partly drawn) [NH2, phenol]",–,+ (>3 to ≦10),–
"CC(C)CN(C[C@@H](O)[C@H](Cc1ccc([N+](=O)[O-])cc1)NC(=O)O[C@H]1CO[C@H]2OCC[C@H]21)S(=O)(=O)c1ccc(OCP(=O)(Oc2ccccc2)Oc2ccccc2)cc1 [NO2, phenol]",–,− (≦3),–
"CC(C)CN(CC(O)C(Cc1ccc(O)cc1)NC(=O)OC1COC2OCCC12)S(=O)(=O)c1ccc(N)cc1 (stereo not drawn) [OH, p-NH2]",–,− (≦3),–
"COc1ccc(S(=O)(=O)N(CC(C)C)C[C@@H](O)[C@H](Cc2ccc(OCP(=O)(OCc3ccccc3)OCc3ccccc3)cc2)NC(=O)OC2CCOC2)cc1 (stereo partly drawn) [OMe, OBn]",–,+ +,–
"CCOP(=O)(COc1ccc(CC(NC(=O)OC2CCOC2)C(O)CN(CC(C)C)S(=O)(=O)c2ccc(OC)cc2)cc1)OCC (stereo not drawn) [OMe, OEt]",–,+ + +,–
"COc1ccc(S(=O)(=O)N(CC(C)C)C[C@@H](O)[C@H](Cc2ccc(OCP(=O)(O)O)cc2)NC(=O)OC2CCOC2)cc1 (stereo partly drawn) [OMe, OH]",–,+ + +,–
"COc1ccc(S(=O)(=O)N(CC(C)C)C[C@@H](O)[C@H](Cc2ccc(OCP(=O)(Oc3ccccc3)Oc3ccccc3)cc2)NC(=O)OC2CCOC2)cc1 (stereo partly drawn) [OMe, phenol]",–,+ + +,–
COc1ccc(S(=O)(=O)N(CC(C)C)CC(O)C(Cc2ccc(OCP(=O)(O)O)cc2)NC(=O)OC2COC3OCCC23)cc1 (stereo not drawn) [drawing 608 R1=OH R2=OH],− (≦3),–,–
CCCCOC(=O)C(CC)NP(=O)(COc1ccc(CC(NC(=O)OC2COC3OCCC23)C(O)CN(CC(C)C)S(=O)(=O)c2ccc(OC)cc2)cc1)NC(CC)C(=O)OCCCC (stereo not drawn) [drawing 612 R1=Aba-Bu R2=Aba-Bu],++ (>10 to ≦30),–,–
CCCCOC(=O)C(CC(C)C)NP(=O)(COc1ccc(CC(NC(=O)OC2COC3OCCC23)C(O)CN(CC(C)C)S(=O)(=O)c2ccc(OC)cc2)cc1)NC(CC(C)C)C(=O)OCCCC (stereo not drawn) [drawing 612 R1=Leu-Bu R2=Leu-Bu],+ (>3 to ≦10),–,–
CCNP(=O)(COc1ccc(CC(NC(=O)OC2COC3OCCC23)C(O)CN(CC(C)C)S(=O)(=O)c2ccc(OC)cc2)cc1)NCC (stereo not drawn) [drawing 612 R1=NHEt R2=NHEt],− (≦3),–,–
CCOC(=O)C(NP(=O)(COc1ccc(CC(NC(=O)OC2COC3OCCC23)C(O)CN(CC(C)C)S(=O)(=O)c2ccc(OC)cc2)cc1)NC(C(=O)OCC)C(C)C)C(C)C (stereo not drawn) [drawing 612 R1=Val-Et R2=Val-Et],− (≦3),–,–
CCOC(=O)C(C)OP(=O)(COc1ccc(CC(NC(=O)OC2COC3OCCC23)C(O)CN(CC(C)C)S(=O)(=O)c2ccc(OC)cc2)cc1)OC(C)C(=O)OCC (stereo not drawn) [drawing 613 R1=Lac-Et R2=Lac-Et],− (≦3),–,–
COc1ccc(S(=O)(=O)N(CC(C)C)CC(O)C(Cc2ccc(OCP(=O)(NC(C)C(=O)OC(C)C)Oc3ccccc3)cc2)NC(=O)OC2COC3OCCC23)cc1 (stereo not drawn) [drawing 614 R1=OPh R2=Ala-iPr],− (≦3),–,–
CCCCOC(=O)CNP(=O)(COc1ccc(CC(NC(=O)OC2COC3OCCC23)C(O)CN(CC(C)C)S(=O)(=O)c2ccc(OC)cc2)cc1)Oc1ccccc1 (stereo not drawn) [drawing 614 R1=OPh R2=Gly-Bu],− (≦3),–,–
CCOC(=O)COP(=O)(COc1ccc(CC(NC(=O)OC2COC3OCCC23)C(O)CN(CC(C)C)S(=O)(=O)c2ccc(OC)cc2)cc1)Oc1ccccc1 (stereo not drawn) [drawing 615 R1=OPh R2=Glc-Et],− (≦3),–,–
CCOP(=O)(CCNCc1ccc(CC(NC(=O)OC2COC3OCCC23)C(O)CN(CC(C)C)S(=O)(=O)c2ccc(OC)cc2)cc1)OCC (stereo not drawn) [drawing 619 R1=Et R2=Et],–,–,I50V (#2) fold change [2]: − (≦3)
COc1ccc(S(=O)(=O)N(CC(C)C)CC(O)C(Cc2ccc(CNCCP(=O)(O)O)cc2)NC(=O)OC2COC3OCCC23)cc1 (stereo not drawn) [drawing 619 R1=H R2=H],–,–,I50V (#2) fold change [2]: + (>3 to ≦10)
COc1ccc(S(=O)(=O)N(CC(C)C)CC(O)C(CC2=CCN(CCP(=O)(OCc3ccccc3)OCc3ccccc3)CC2)NC(=O)OC2COC3OCCC23)cc1 (stereo not drawn) [drawing 673],–,− (≦3),–
CCCCOC(=O)C(C)OP(=O)(COc1ccc(CC(NC(=O)OC2COC3OCCC23)C(O)CN(CC(C)C)S(=O)(=O)c2cccc(N)c2)cc1)Oc1ccccc1 (stereo not drawn) [drawing 719],–,− (≦3),–

# Where two headings read alike, the source gives them in different places.
